Reference: PMC11509758, “New Fusarochromanone Derivatives from the Marine Fungus Fusarium equiseti UBOCC-A-117302” (Marine Drugs, 2024)

How the values were obtained:
Conditions in all cases: fixed concentration 25 µM, 48 h, primary assessment
hTERT RPE-1 cells = test system: hTERT RPE-1 cells
HCT-116 cells = test system: HCT-116 cells
U-2 OS cells = assay: Cell viability, MTS reduction assay, U2OS

C[C@H](O)c1nc(=O)c2ccccc2[nH]1 [Compound 7, (−)-chrysogine]
no cytotoxicity: cytotoxicity at 25 µM, RPE-1 (hTERT RPE-1 cells) | cytotoxicity at 25 µM, HCT-116 (HCT-116 cells) | cytotoxicity at 25 µM, U2OS (U-2 OS cells)

C/C=C/[C@@H]1C=C[C@@H]2C[C@H](C)CC[C@H]2[C@]1(C)/C(O)=C1\C(=O)[C@H](CO)N(C)C1=O [Compound 8, equisetin]
no cytotoxicity: cytotoxicity at 25 µM, RPE-1 (hTERT RPE-1 cells) | cytotoxicity at 25 µM, HCT-116 (HCT-116 cells) | cytotoxicity at 25 µM, U2OS (U-2 OS cells)
